Potato spindle tuber viroid, loop 15: variant abundance in plants

Data from the supplement of Wu et al. 2024, doi:10.1371/journal.ppat.1012142.

PSTVd intermediate strain, loop 15: wild type GGAAACCGCUACUAC, pool pattern GGAAACCGNNNNNNC; upper and lower strand joined, each 5' to 3', the first 7 letters being the upper strand, closing pairs included.

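Three N. benthamiana plants were inoculated with the whole mutant pool. Samples came from the inoculated region at 5 days, the leaf margin at 10 and upper systemic leaves at 12.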

Values are reads per thousand in the sample; higher means more abundant, 0 means not found. Each value is the mean of three plants. "Pool" is the share in the plasmid pool used as inoculum, on the same scale. The inoculated region was read from the minus strand, the other sites from the plus strand. The authors trace changes outside the varied positions to PCR and sequencing errors or to mutation in the plant; presence does not show that a variant is infectious alone. With 43,870-66,106 reads a sample, very low values are single reads. Wild type was 33.9 per thousand in the pool and the most common sequence in every sample (inoculated region 202, 200, 159; leaf margin 724, 746, 710; systemic leaves 856, 883, 880).

{"sequence": "GGAAACCGUGUUCAC", "pool": "0.208", "inoculated region": 0.102, "leaf margin": 0, "systemic leaves": 0.00537}
{"sequence": "GGAAACCGCUAUGCC", "pool": "0.192", "inoculated region": 0.213, "leaf margin": 0.0262, "systemic leaves": 0.0104}
{"sequence": "GGAAACCGUAAAUUC", "pool": "0.224", "inoculated region": 0.384, "leaf margin": 0.152, "systemic leaves": 0.0467}
{"sequence": "GGAAACCGAGUAUCC", "pool": "0.272", "inoculated region": 0.187, "leaf margin": 0.0141, "systemic leaves": 0.00537}
{"sequence": "GGAAACCGCCGUGUC", "pool": "0.304", "inoculated region": 0.275, "leaf margin": 0.00539, "systemic leaves": 0.00504}
{"sequence": "GGAAACCGGUCGUGC", "pool": "0.240", "inoculated region": 0.313, "leaf margin": 0.0731, "systemic leaves": 0.00537}
{"sequence": "GGAAACCGAGCUCGC", "pool": "0.336", "inoculated region": 0.264, "leaf margin": 0.00668, "systemic leaves": 0}
{"sequence": "GGAAACCGACCCAAC", "pool": "0.160", "inoculated region": 0.0752, "leaf margin": 0.00742, "systemic leaves": 0}
{"sequence": "GGAAACCGUACGAAC", "pool": "0.304", "inoculated region": 0.363, "leaf margin": 0.0993, "systemic leaves": 0.0158}
{"sequence": "GGAAACCGGGCGCUC", "pool": "0.160", "inoculated region": 0.306, "leaf margin": 0.0121, "systemic leaves": 0.0107}
{"sequence": "GGAAACCGUUAAUAC", "pool": "0.144", "inoculated region": 0.298, "leaf margin": 0.131, "systemic leaves": 0.00537}
{"sequence": "GGAAACCGACUCACC", "pool": "0.208", "inoculated region": 0.107, "leaf margin": 0, "systemic leaves": 0}
{"sequence": "GGAAACCGACGAUGC", "pool": "0.240", "inoculated region": 0.140, "leaf margin": 0.0128, "systemic leaves": 0}
{"sequence": "GGAAACCGCGUUUUC", "pool": "0.224", "inoculated region": 0.130, "leaf margin": 0.0134, "systemic leaves": 0}
{"sequence": "GGAAACCGCUUAAUC", "pool": "0.128", "inoculated region": 0.104, "leaf margin": 0.0128, "systemic leaves": 0}
{"sequence": "GGAAACCGCCUUACC", "pool": "0.208", "inoculated region": 0.154, "leaf margin": 0.00539, "systemic leaves": 0.00537}
{"sequence": "GGAAACCGUGGCAUC", "pool": "0.208", "inoculated region": 0.145, "leaf margin": 0.00668, "systemic leaves": 0}
{"sequence": "GGAAACCGAGGUCGC", "pool": "0.336", "inoculated region": 0.120, "leaf margin": 0.00668, "systemic leaves": 0}
{"sequence": "GGAAACCGUAUUGUC", "pool": "0.160", "inoculated region": 0.0823, "leaf margin": 0.00668, "systemic leaves": 0}
{"sequence": "GGAAACCGCUAAGGC", "pool": "0.176", "inoculated region": 0.121, "leaf margin": 0.0134, "systemic leaves": 0}
{"sequence": "GGAAACCGCGGGUAC", "pool": "0.256", "inoculated region": 0.289, "leaf margin": 0.111, "systemic leaves": 0.0815}
{"sequence": "GGAAACCGUUUGAUC", "pool": "0.192", "inoculated region": 0.0985, "leaf margin": 0.00742, "systemic leaves": 0}
{"sequence": "GGAAACCGCGUCGCC", "pool": "0.352", "inoculated region": 0.0514, "leaf margin": 0.0208, "systemic leaves": 0}
{"sequence": "GGAAACCGAUAAGAC", "pool": "0.336", "inoculated region": 0.118, "leaf margin": 0, "systemic leaves": 0}
{"sequence": "GGAAACCGACAAGGC", "pool": "0.272", "inoculated region": 0.0723, "leaf margin": 0.0148, "systemic leaves": 0}
{"sequence": "GGAAACCGUAUACCC", "pool": "0.240", "inoculated region": 0.0957, "leaf margin": 0, "systemic leaves": 0}
{"sequence": "GGAAACCGUGGUACC", "pool": "0.192", "inoculated region": 0.153, "leaf margin": 0.00668, "systemic leaves": 0}
{"sequence": "GGAAACCGGCAUUAC", "pool": "0.272", "inoculated region": 0.286, "leaf margin": 0.101, "systemic leaves": 0.0622}
{"sequence": "GGAAACCGAUUUCUC", "pool": "0.352", "inoculated region": 0.139, "leaf margin": 0.0187, "systemic leaves": 0}
{"sequence": "GGAAACCGAAACUUC", "pool": "0.208", "inoculated region": 0.652, "leaf margin": 0.0901, "systemic leaves": 0.0996}
{"sequence": "GGAAACCGUGUUCGC", "pool": "0.272", "inoculated region": 0.226, "leaf margin": 0.00742, "systemic leaves": 0.00537}

Excerpt, the final 4 entries:

sequence,pool,inoculated region,leaf margin,systemic leaves
GGAAACCGGCAUUAC,0.272,0.286,0.101,0.0622
GGAAACCGAUUUCUC,0.352,0.139,0.0187,0
GGAAACCGAAACUUC,0.208,0.652,0.0901,0.0996
GGAAACCGUGUUCGC,0.272,0.226,0.00742,0.00537